Experimental data: PubChem BioAssay AID624099 (ICCB-Longwood, 2012)
Test: 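Knock-downs relieving repression by E2 of an HPV18 LCR luciferase reporter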 (primary screen). Cells: human C33A cervical carcinoma cells (HPV-negative) stably expressing BPV1 E2 and an HPV18 LCR luciferase reporter. Reagent: siRNA pool against human genes, 40 nM. Timing: 72 h. Detection: 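HPV18 LCR reporter light per well, converted to plate-wise z-scores that exclude control wells, and averaged over triplicate plates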. Direction: mean z-score and z-score: higher = stronger reporter signal, weaker E2 silencing. Rule for the call: 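Mean z ≥ 2 together with z ≥ 2 in two or more of the three replicates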.
Shown is one part, drawn at random, of about 21,000 reagents tested. 497 of all reagents (2.4%) count as active. 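Higher z means weaker E2 silencing; only reporter increases were scored, and knock-downs that hurt cell survival may mask genuine repressor factors.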

How did the screen score FGFBP2?
mean z-score: -0.22; z-score, replicate A: -0.2; z-score, replicate B: -0.13; z-score, replicate C: -0.32; Outcome: inactive

With RPL30, how do the results read?
mean z-score: -1.88; z-score, replicate A: -1.54; z-score, replicate B: -2.02; z-score, replicate C: -2.08; Outcome: inactive

With RDH12, what does the deposit list?
mean z-score: 1.1; z-score, replicate A: 1.3; z-score, replicate B: 0.74; z-score, replicate C: 1.27; Outcome: inactive

With TRAM1, what was measured?
mean z-score: -0.28; z-score, replicate A: 0.18; z-score, replicate B: -0.37; z-score, replicate C: -0.65; Outcome: inactive

What did the screen give for AQR?
mean z-score: 1.39; z-score, replicate A: 1.27; z-score, replicate B: 1.26; z-score, replicate C: 1.65; Outcome: inactive

What did the screen give for DOCK9?
mean z-score: -1.44; z-score, replicate A: -1.34; z-score, replicate B: -1.4; z-score, replicate C: -1.58; Outcome: inactive

With FBXL14, what does the deposit list?
mean z-score: 1.79; z-score, replicate A: 2; z-score, replicate B: 1.82; z-score, replicate C: 1.55; Outcome: inactive

With SF3A3, what does the deposit list?
mean z-score: -0.76; z-score, replicate A: -0.59; z-score, replicate B: -0.63; z-score, replicate C: -1.06; Outcome: inactive

What is on record for SLAMF1?
mean z-score: -1.15; z-score, replicate A: -1.15; z-score, replicate B: -1.18; z-score, replicate C: -1.1; Outcome: inactive

For SCAF11, what does the deposit list?
mean z-score: 0.98; z-score, replicate A: 0.94; z-score, replicate B: 1.11; z-score, replicate C: 0.87; Outcome: inactive

For ZNF71, what does the deposit list?
mean z-score: -0.75; z-score, replicate A: -0.29; z-score, replicate B: -0.42; z-score, replicate C: -1.54; Outcome: inactive

For LCE5A, what does the deposit list?
mean z-score: 2.05; z-score, replicate A: 1.75; z-score, replicate B: 1.7; z-score, replicate C: 2.71; Outcome: inactive

What did the screen give for RHOBTB3?
mean z-score: -1.24; z-score, replicate A: -1.33; z-score, replicate B: -1.3; z-score, replicate C: -1.1; Outcome: inactive

For PRPH2, what does the deposit list?
mean z-score: 1.06; z-score, replicate A: 0.71; z-score, replicate B: 1.03; z-score, replicate C: 1.45; Outcome: inactive

With DHDH, how do the results read?
mean z-score: 0.33; z-score, replicate A: 0.16; z-score, replicate B: 0.19; z-score, replicate C: 0.62; Outcome: inactive

With OR1L4, what was measured?
mean z-score: -0.69; z-score, replicate A: -1.25; z-score, replicate B: -0.55; z-score, replicate C: -0.27; Outcome: inactive

With IZUMO4, how do the results read?
mean z-score: -0.09; z-score, replicate A: -0.79; z-score, replicate B: 0.19; z-score, replicate C: 0.32; Outcome: inactive

How did the screen score SHH?
mean z-score: -0.69; z-score, replicate A: -0.89; z-score, replicate B: 0.09; z-score, replicate C: -1.28; Outcome: inactive

Targets listed so far whose gene name begins with S or s:
SF3A3 | mean z-score: -0.76; z-score, replicate A: -0.59; z-score, replicate B: -0.63; z-score, replicate C: -1.06; Outcome: inactive
SLAMF1 | mean z-score: -1.15; z-score, replicate A: -1.15; z-score, replicate B: -1.18; z-score, replicate C: -1.1; Outcome: inactive
SCAF11 | mean z-score: 0.98; z-score, replicate A: 0.94; z-score, replicate B: 1.11; z-score, replicate C: 0.87; Outcome: inactive
SHH | mean z-score: -0.69; z-score, replicate A: -0.89; z-score, replicate B: 0.09; z-score, replicate C: -1.28; Outcome: inactive

Further results:
With TXNDC9P1, what does the deposit list?
mean z-score: 0.6; z-score, replicate A: 0.61; z-score, replicate B: 0.21; z-score, replicate C: 0.97; Outcome: inactive

How did the screen score CRK?
mean z-score: 0.97; z-score, replicate A: 1.23; z-score, replicate B: 0.81; z-score, replicate C: 0.88; Outcome: inactive

How did the screen score SMU1?
mean z-score: -0.9; z-score, replicate A: -1.14; z-score, replicate B: -1.02; z-score, replicate C: -0.55; Outcome: inactive

What is on record for ZNF518B?
mean z-score: -0.2; z-score, replicate A: -0.68; z-score, replicate B: -0.24; z-score, replicate C: 0.33; Outcome: inactive

With RCN3, what does the deposit list?
mean z-score: 0.68; z-score, replicate A: 0.58; z-score, replicate B: 1.34; z-score, replicate C: 0.12; Outcome: inactive

How did the screen score EPPIN?
mean z-score: -0.8; z-score, replicate A: -0.99; z-score, replicate B: -0.87; z-score, replicate C: -0.54; Outcome: inactive

With CROCC, what was measured?
mean z-score: 3.14; z-score, replicate A: 3.16; z-score, replicate B: 3.13; z-score, replicate C: 3.14; Outcome: active

With PPIC, what does the deposit list?
mean z-score: -1; z-score, replicate A: -0.91; z-score, replicate B: -1.12; z-score, replicate C: -0.98; Outcome: inactive

How did the screen score FAM90A25P?
mean z-score: 0.19; z-score, replicate A: 0.22; z-score, replicate B: 0.45; z-score, replicate C: -0.11; Outcome: inactive
